Target: T1, PDZ domain of the human MAST2 protein (human), Q6P0Q8
T1 chain: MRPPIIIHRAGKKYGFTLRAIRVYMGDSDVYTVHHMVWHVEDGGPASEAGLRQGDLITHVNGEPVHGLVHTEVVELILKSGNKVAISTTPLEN

B1: VIR13 (Neurovita 1) (peptide)
chain: SWESHKSGGQTRL
Binder B1 has a TΔS (entropy) of -1880, a n (stoechiometry) of 1 and a ΔH (enthalpy) of -9930.
